## Primary screen of a compound library

Data taken from ChEMBL document CHEMBL3988442, “University of Dundee, Small-Polar-MMV Screening Library” (2021).

The filed quantity is “Percent Effect” (%).
The record does not define 0% and 100%; most values in the screen are far below 50% and negative numbers occur (in some assays of this library far below -100).
This is part of a subset picked to be rich in strong results.

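Whole-cell growth test on Mycobacterium tuberculosis, read after 4 days in a medium based on cholesterol and the lipid DPPC; the read-out is not stated. Compounds at 500 µM. Higher reads as more growth inhibition (inferred: compounds with an IC50 in retests scored well above the rest). Of about 18,000 compounds tested this way, about 900 (5%) reached 50% or more in at least one test.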

Compound	Percent Effect
COCCNC1CCOC1 (stereo not drawn)	-5.284
O=C(CCNCc1sccc1Cl)NCc1cccnc1	-0.0577
CCS(=O)(=O)Nc1cccc(C(C)=O)c1	30.05
CN(CC(=O)NC(C)(C)C)C(=O)c1cncc(Br)c1	-15.46
COc1cccc(CNc2nc(C)no2)c1	43.63
COC(=O)N(C)CC(=O)NC(CO)Cc1ccccc1 (stereo not drawn)	-11.53
COc1ccc(C2CCN(CC(=O)NC(N)=O)C2)cc1 (stereo not drawn)	32.73
CCCc1nc(C(=O)NCCS(=O)(=O)N(C)C)cs1	10.46
COc1cc(OC)c(C(=O)c2nccn2C)c(OC)c1	3.988
O=C(CCN1CCCC(O)C1)N1CCc2ccccc21 (stereo not drawn)	-3.059
COc1cc(C(=O)NC[C@@H](O)c2ccc(C)cc2)on1	61.93
c1ccc(OCC2CCNC2)cc1 (stereo not drawn)	16.71
CC(C)c1cc(C(=O)N(C)C(C)c2ccon2)on1 (stereo not drawn)	66.44
CC(C)N(C)C(=O)N(C)CC(=O)Nc1ccc(Br)cn1	-4.689
CCn1ccc(C(=O)N(C)Cc2cccnc2OC)n1	63.03
OCC1CCN(Cc2ccc(F)c3cccnc23)CC1	0.7709
NC1CCN(c2ncccc2F)C1 (stereo not drawn)	27.18
CN(Cc1c(F)cccc1Cl)S(=O)(=O)N1CCOCC1	53.95
CCN1C[C@@H](CO)[C@H](c2nc(C3CC3)no2)C1	2.358
CC1CN(CCCOc2ccc(C#N)cc2)CCN1 (stereo not drawn)	64.76
Cc1cc(CC(=O)NCCCc2ccncc2)on1	87.19
Clc1cnc(C2CCNCC2)nc1	3.935
COc1ccc([S+]([O-])Cc2noc(C)n2)cc1 (stereo not drawn)	68.2
CO[C@@H]1CCOC[C@H]1NC(=O)Cc1cnccn1	-12.82
CCN(CC)CC(=O)NCc1ccco1	-3.689
CN(C)c1nccc(CNc2ccc(C#N)nc2)n1	63.11
O=C(CO)NC1CCN(Cc2cc(Cl)cc(Cl)c2)CC1	-0.05815
COCc1noc(-c2ccc(C#N)cc2)n1	-19.97
CNS(=O)(=O)c1cccc(CN)c1	23.25
Nc1noc(-c2ccc(Cl)cc2)n1	10.61
CN(CC(=O)Nc1sccc1C(N)=O)Cc1ccco1	29.12
NC(Cc1ccccc1)C(=O)NC1CC1 (stereo not drawn)	8.344
CC1=CS(=O)(=O)c2c(F)cccc21	-5.629
O=C1CCC(C(=O)NCCc2ccc(F)cc2)N1 (stereo not drawn)	-2.55
Cc1cccc(NC(=O)C(C)N)c1 (stereo not drawn)	13.07
CNC(=O)C(C)NS(=O)(=O)c1ccc(OC)c(Cl)c1 (stereo not drawn)	15.03
Cc1cc(=O)cc(C(=O)NCCCc2ccncc2)o1	-7.065
COC1(C)CN(C(=O)Nc2ccc(F)cc2)C1	33.17
CC(C)N1CCC(NC(=O)c2ccoc2)CC1	1.025
CN(C)C(=O)CN1CCCC(CO)(CC2CC2)C1 (stereo not drawn)	2.499
NC(=O)CCc1csc(N)n1	-7.86
Cc1cc(Cl)ccc1C(=O)Nc1ccc(C(N)=O)nc1	-3.611
N#CCc1cc(Cl)ccn1	-7.24
CSCc1noc(CN2CC[C@@](C)(O)[C@@H](O)C2)n1	-1.066
Nc1cnccc1NCCN1CCOCC1	-3.564
C[C@H](c1ccc(Cl)cc1)n1c(CCN)n[nH]c1=O	9.492
O=S(=O)(NCCO)c1ccc2ccccc2c1	7.78
NCC(O)c1ccc(Cl)c(Cl)c1 (stereo not drawn)	55.78
O=C(NCCC1=CSC2=NCCCN12)c1cnn[nH]1	4.228
CN1CCN(CC2CNC2)CC1	-2.181
COCCc1noc(C2CCN(CC(N)=O)CC2)n1	-12.44
CCOc1ccc(Cl)cc1CCNS(=O)(=O)N(C)C	89.58
Cn1nccc1CNS(=O)(=O)c1nccs1	-4.627
NCC1(OCCO)CCOCC1	-7.31
COC(=O)c1ccc(COc2ccccc2CO)o1	52.67
Cc1ccc2ncc(CCN)cc2c1	23.78
CC(C)(O)CSc1nnc(NCc2ccco2)s1	80.02
Cn1ncnc1COc1ccc(S(N)(=O)=O)cc1	-2.09
O=C(C1CC12CCNCC2)N1CCCC1 (stereo not drawn)	-10.72
CC(C)CS(=O)(=O)N1CCC(N)CC1	9.974
N[C@H]1CN(C(=O)c2c(F)cccc2F)C[C@@H]1C1CC1	17.37
NC1CC(=O)N(CCc2ccccc2)C1 (stereo not drawn)	-8.846
N#CC1(C(=O)NCc2ccc(O)c(F)c2)CCCC1	22
Cn1cc([C@@H]2[C@@H](CN)CC(=O)N2C(C)(C)C)cn1	-6.468
Cc1cnc(C)c(N2CCC3(CC2)CNC(=O)C3)n1	-7.232
CC(C)(C)NCCNC(=O)CC1(O)CCCC1	-0.5085
OCC(O)CSCc1c(Cl)ccc2cccnc12 (stereo not drawn)	-19.04
CCNC(=O)[C@H]1Cc2ccccc2CN1	18.69
O=C(c1ccc(Br)o1)N1CCN(Cc2ccco2)CC1	99.55
CS(=O)(=O)CC(=O)Nc1cccc(Cl)c1Cl	15.19
CC(=O)NCCNc1c(C)c(C)nc2ccccc12	-30.09
O=C(NCc1ccc2c(c1)OCCCO2)c1cscn1	65.46
CNCC(=O)NCc1cnc(-c2cccc(OC)c2)s1	31.42
CCNC(=O)c1cc(C#N)cn1C	-0.5858
COCC(C)NC(=O)CNc1ccccc1OC(F)F (stereo not drawn)	11.96
CN(C)c1ncc(CNC(=O)C2(C)CCC2)n1C	-1.95
CCOCCOc1cccc(NC(=O)NCCN)c1	10.03
CCS(=O)(=O)c1ccc(S(=O)(=O)N2CC[C@H](N)C2)cc1	14.82
COc1cccc(NC(=O)CNC(C)(C)C)c1	3.591

Some entries from above, unchanged:

Compound	Percent Effect
NC1CCN(c2ncccc2F)C1 (stereo not drawn)	27.18
COCC(C)NC(=O)CNc1ccccc1OC(F)F (stereo not drawn)	11.96
CS(=O)(=O)CC(=O)Nc1cccc(Cl)c1Cl	15.19
COC(=O)c1ccc(COc2ccccc2CO)o1	52.67
CC(C)CS(=O)(=O)N1CCC(N)CC1	9.974